PubChem BioAssay AID624099 – ICCB-Longwood, 2012
Aim: 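Human genes that papillomavirus E2 requires to repress the HPV18 LCR promoter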 (primary screen). System: human C33A cervical carcinoma cells (HPV-negative) stably expressing BPV1 E2 and an HPV18 LCR luciferase reporter. Knock-down reagent: siRNA pool against human genes, 40 nM. Time to read-out: 72 h. Measured: 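HPV18 LCR reporter light per well, converted to plate-wise z-scores that exclude control wells, and averaged over triplicate plates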. Reading the numbers: mean z-score and z-score: higher = stronger reporter signal, weaker E2 silencing. Active means: 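Hit if mean z-score reaches 2 and two or more of three replicate z-scores also reach 2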.
In all, the deposit lists about 21,000 reagents; shown is a part drawn at random. 497 of all reagents (2.4%) count as active. 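Higher z means weaker E2 silencing; only reporter increases were scored, and knock-downs that hurt cell survival may mask genuine repressor factors.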 No sequences are given here.

mean z-score | z-score, replicate A | z-score, replicate B | z-score, replicate C | outcome | Target gene
1.29 | 1.42 | 1.36 | 1.09 | inactive | NMRAL1 (GeneID 57407)
-0.56 | -0.5 | -0.38 | -0.8 | inactive | LOC440750 (retired record) (GeneID 440750)
1.71 | 1.87 | 1.6 | 1.65 | inactive | HMX1 (GeneID 3166)
0.32 | 0.5 | 0.09 | 0.38 | inactive | MATK (GeneID 4145)
-0.29 | -0.45 | 0.11 | -0.53 | inactive | KCNMB4 (GeneID 27345)
1.85 | 2.15 | 1.77 | 1.64 | inactive | DDX47 (GeneID 51202)
0.54 | 0.41 | 0.58 | 0.62 | inactive | ALAS1 (GeneID 211)
0.63 | 0.82 | 0.55 | 0.53 | inactive | KANSL1L (GeneID 151050)
-0.78 | -0.96 | -0.69 | -0.68 | inactive | WFDC2 (GeneID 10406)
-1.12 | -1.31 | -0.93 | -1.12 | inactive | LOC401383 (retired record) (GeneID 401383)
1.33 | 1.82 | 1.23 | 0.94 | inactive | PRMT2IP (GeneID 56905)
-1.03 | -1.1 | -1.08 | -0.9 | inactive | RNF182 (GeneID 221687)
0.47 | 0.68 | 0.27 | 0.47 | inactive | RCHY1 (GeneID 25898)
-0.91 | -1.06 | -0.9 | -0.78 | inactive | TBX2 (GeneID 6909)
-0.26 | -0.31 | -0.51 | 0.05 | inactive | SYTL2 (GeneID 54843)
-1.37 | -1.36 | -1.38 | -1.37 | inactive | LINC00661 (GeneID 126536)
-1.22 | -1.14 | -1.19 | -1.34 | inactive | MTR (GeneID 4548)
0.29 | 0.05 | 0.44 | 0.38 | inactive | PRKDC (GeneID 5591)
1.39 | 1.21 | 1.3 | 1.68 | inactive | CYP8B1 (GeneID 1582)
-0.99 | -0.6 | -1.24 | -1.12 | inactive | TNFSF12-TNFSF13 (GeneID 407977)
-1.35 | -1.42 | -1.29 | -1.33 | inactive | PKLR (GeneID 5313)
-0.33 | -0.06 | -0.42 | -0.51 | inactive | CYLD (GeneID 1540)
0.09 | 0.35 | -0.18 | 0.11 | inactive | TMED5 (GeneID 50999)
0.49 | 0.21 | 0.72 | 0.55 | inactive | C19orf53 (GeneID 28974)
-0.57 | -0.26 | -0.9 | -0.55 | inactive | PLPPR5 (GeneID 163404)

10 entries from above, reformatted.
LOC401383 (retired record) (GeneID 401383) → mean z-score: -1.12; z-score, replicate A: -1.31; z-score, replicate B: -0.93; z-score, replicate C: -1.12; outcome: inactive
PRMT2IP (GeneID 56905) → mean z-score: 1.33; z-score, replicate A: 1.82; z-score, replicate B: 1.23; z-score, replicate C: 0.94; outcome: inactive
RNF182 (GeneID 221687) → mean z-score: -1.03; z-score, replicate A: -1.1; z-score, replicate B: -1.08; z-score, replicate C: -0.9; outcome: inactive
RCHY1 (GeneID 25898) → mean z-score: 0.47; z-score, replicate A: 0.68; z-score, replicate B: 0.27; z-score, replicate C: 0.47; outcome: inactive
TBX2 (GeneID 6909) → mean z-score: -0.91; z-score, replicate A: -1.06; z-score, replicate B: -0.9; z-score, replicate C: -0.78; outcome: inactive
SYTL2 (GeneID 54843) → mean z-score: -0.26; z-score, replicate A: -0.31; z-score, replicate B: -0.51; z-score, replicate C: 0.05; outcome: inactive
LINC00661 (GeneID 126536) → mean z-score: -1.37; z-score, replicate A: -1.36; z-score, replicate B: -1.38; z-score, replicate C: -1.37; outcome: inactive
MTR (GeneID 4548) → mean z-score: -1.22; z-score, replicate A: -1.14; z-score, replicate B: -1.19; z-score, replicate C: -1.34; outcome: inactive
PRKDC (GeneID 5591) → mean z-score: 0.29; z-score, replicate A: 0.05; z-score, replicate B: 0.44; z-score, replicate C: 0.38; outcome: inactive
CYP8B1 (GeneID 1582) → mean z-score: 1.39; z-score, replicate A: 1.21; z-score, replicate B: 1.3; z-score, replicate C: 1.68; outcome: inactive

Next results:
mean z-score | z-score, replicate A | z-score, replicate B | z-score, replicate C | outcome | Target gene
-0.25 | 0.02 | -0.49 | -0.28 | inactive | NDST2 (GeneID 8509)
-0.15 | -0.24 | -0.16 | -0.04 | inactive | PYGO2 (GeneID 90780)
-0.82 | -0.42 | -1.09 | -0.97 | inactive | CACNG5 (GeneID 27091)
1.04 | 1.3 | 1.24 | 0.6 | inactive | RBBP7 (GeneID 5931)
-0.49 | -0.6 | -0.37 | -0.52 | inactive | ZNF776 (GeneID 284309)
-1.75 | -1.54 | -1.7 | -2 | inactive | LCE3C (GeneID 353144)
1.58 | 1.61 | 1.43 | 1.71 | inactive | ARL2 (GeneID 402)
0.03 | -0.1 | 0.1 | 0.1 | inactive | SPRED1 (GeneID 161742)
-0.07 | 0.01 | 0.06 | -0.27 | inactive | CCDC74B (GeneID 91409)
0.97 | 0.71 | 1.16 | 1.03 | inactive | SKA2 (GeneID 348235)
-0.18 | 0.19 | -0.1 | -0.63 | inactive | HRH1 (GeneID 3269)
0.85 | 1.06 | 0.7 | 0.79 | inactive | NFIL3 (GeneID 4783)
-0.86 | -0.85 | -0.67 | -1.07 | inactive | RANBP10 (GeneID 57610)
0.12 | -0.38 | 0.37 | 0.37 | inactive | GPN3 (GeneID 51184)
-0.35 | -0.38 | -0.34 | -0.33 | inactive | TRIM24 (GeneID 8805)
-0.28 | -0.33 | -0.32 | -0.2 | inactive | RCVRN (GeneID 5957)
0.75 | 1.35 | 0.53 | 0.37 | inactive | LOC401061 (retired record) (GeneID 401061)
1.12 | 1.19 | 1.13 | 1.04 | inactive | UBTD2 (GeneID 92181)
0.26 | 0.48 | 0.07 | 0.22 | inactive | LOC399786 (retired record) (GeneID 399786)
1.5 | 1.47 | 1.85 | 1.18 | inactive | PIGG (GeneID 54872)
-1.33 | -1.24 | -1.39 | -1.35 | inactive | EIF1AX (GeneID 1964)
-0.13 | -0.17 | -0.31 | 0.11 | inactive | B3GNT6 (GeneID 192134)
0.14 | -0.05 | 0.39 | 0.08 | inactive | SSU72 (GeneID 29101)
-0.46 | -0.53 | -0.38 | -0.46 | inactive | EVI2B (GeneID 2124)
-0.74 | -0.61 | -0.73 | -0.88 | inactive | LINC00200 (GeneID 399706)
-1.53 | -1.58 | -2.16 | -0.85 | inactive | SUGP1 (GeneID 57794)
0.31 | 0.23 | 0.19 | 0.51 | inactive | CD1E (GeneID 913)
-1.21 | -1.41 | -1.26 | -0.98 | inactive | PLIN2 (GeneID 123)
-0.72 | -0.8 | -1.01 | -0.34 | inactive | LINC01555 (GeneID 439927)
0.97 | 1.02 | 0.7 | 1.2 | inactive | RPAIN (GeneID 84268)
-0.35 | -0.23 | -0.3 | -0.51 | inactive | NAP1L2 (GeneID 4674)
-0.08 | -0.04 | -0.2 | 0 | inactive | SSX6P (GeneID 280657)
